{"source": "PubChem BioAssay AID1259414 (Drosophila RNAi Screening Center, 2018)", "assay": "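Genome-wide screen for host control of endosymbiont load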 (primary screen)", "cell system": "Drosophila JW18 cells infected with Wolbachia", "knock-down reagent": "long dsRNA against Drosophila genes, 0.25 µg dsRNA per well of a 384-well plate", "duration": "5 days", "challenge": "cells persistently infected with Wolbachia before knock-down; no added drug", "read-out": "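Automated imaging of bacterial rRNA staining divided by host cell count, reported as plate-normalised robust z-score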", "reading the numbers": "Wolbachia per cell robust z: higher = more Wolbachia per host cell than the plate typical", "active means": "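Hit when robust z is 1.5 or more, or -1.5 or less, in at least two of three replicates; excludes dsRNAs with several or no targets, genes not expressed in JW18 and well A1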", "note": "The screen tested about 24,000 reagents; shown is a random part of those with a known target gene and a result. In the full data, about 1,210 (5%) are marked active. 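Inactive calls also include excluded dsRNAs with several or no targets, genes unexpressed in JW18, and well A1, regardless of score.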 No sequences are given here."}
{"gene": "CG34228", "DRSC id": "DRSC38878", "Wolbachia per cell robust z, rep 1": -4.14, "Wolbachia per cell robust z, rep 2": 0.908, "Wolbachia per cell robust z, rep 3": 0.514, "outcome": "inactive"}
{"gene": "CG15111", "DRSC id": "DRSC21467", "Wolbachia per cell robust z, rep 1": -0.853, "Wolbachia per cell robust z, rep 2": -0.472, "Wolbachia per cell robust z, rep 3": -1.1, "outcome": "inactive"}
{"gene": "Acbp2", "DRSC id": "DRSC11141", "Wolbachia per cell robust z, rep 1": -1.14, "Wolbachia per cell robust z, rep 2": -1.13, "Wolbachia per cell robust z, rep 3": -0.643, "outcome": "inactive"}
{"gene": "Acbp2", "DRSC id": "DRSC24352", "Wolbachia per cell robust z, rep 1": -0.392, "Wolbachia per cell robust z, rep 2": -0.27, "Wolbachia per cell robust z, rep 3": 0.391, "outcome": "inactive"}
{"gene": "CG30379", "DRSC id": "DRSC05070", "Wolbachia per cell robust z, rep 1": -2.28, "Wolbachia per cell robust z, rep 2": -1.1, "Wolbachia per cell robust z, rep 3": 0.186, "outcome": "inactive"}
{"gene": "CG13217", "DRSC id": "DRSC06339", "Wolbachia per cell robust z, rep 1": -2.29, "Wolbachia per cell robust z, rep 2": -2.5, "Wolbachia per cell robust z, rep 3": 1.05, "outcome": "inactive"}
{"gene": "CG42402", "DRSC id": "DRSC38595", "Wolbachia per cell robust z, rep 1": 0.0575, "Wolbachia per cell robust z, rep 2": -0.957, "Wolbachia per cell robust z, rep 3": 0.277, "outcome": "inactive"}
{"gene": "CG42402", "DRSC id": "DRSC38764", "Wolbachia per cell robust z, rep 1": 0.671, "Wolbachia per cell robust z, rep 2": -4.42, "Wolbachia per cell robust z, rep 3": -1.68, "outcome": "inactive"}
{"gene": "IntS6", "DRSC id": "DRSC18281", "Wolbachia per cell robust z, rep 1": 1.41, "Wolbachia per cell robust z, rep 2": -1.38, "Wolbachia per cell robust z, rep 3": 1.77, "outcome": "inactive"}
{"gene": "IntS6", "DRSC id": "DRSC30100", "Wolbachia per cell robust z, rep 1": 2.13, "Wolbachia per cell robust z, rep 2": 4.72, "Wolbachia per cell robust z, rep 3": 2.3, "outcome": "active"}
{"gene": "kek6", "DRSC id": "DRSC15299", "Wolbachia per cell robust z, rep 1": 0.709, "Wolbachia per cell robust z, rep 2": 0.198, "Wolbachia per cell robust z, rep 3": 0.844, "outcome": "inactive"}
{"gene": "kek6", "DRSC id": "DRSC23759", "Wolbachia per cell robust z, rep 1": 0.632, "Wolbachia per cell robust z, rep 2": -0.137, "Wolbachia per cell robust z, rep 3": -1.51, "outcome": "inactive"}
